Results of unrelated studies side by side (data: NIAID ChemDB).

Common to all: tests in culture; species: Rhinovirus; read-out: EC50

ECn: concentration that inhibits the pathogen or its effect by n%. Lines come from different laboratories, so protocols vary.

smiles	strain or isolate	method	cell line	value
COc1ccc(Cn2cnc3c(N(C)C)nc(C(F)(F)F)nc32)cc1C	Serotype 8	plaque count	M-HELA	>8 µM
CCO/N=C/c1ccc(OCCC2CCN(c3ccc(Cl)nn3)CC2)cc1	1794 (ICAM-1 receptor group 40)	neutral red	KB	0.003 µM
CSc1ccc(Cn2cnc3c(N(C)C)nc(C(F)(F)F)nc32)cc1	Serotype 21	plaque count	M-HELA	>8 µM
CCOC(=O)c1ccc(OCCCOc2ccc(-c3snc(SC)c3C#N)cc2)cc1	Serotype 14 (group A)	cytopathic effect	HELA-OHIO	0.5 µM
CN(C)c1ccc(Cn2cnc3c(N(C)C)nc(C(F)(F)F)nc32)cc1	Serotype 8	plaque count	M-HELA	>8 µM
Cc1cc(CCCCCOc2c(Cl)cc(C3=NCCO3)cc2Cl)on1	TYPE 33	plaque count	HeLa	0.04 µg/mL
Cc1cc(CCCOc2c(C)cc(-c3noc(C(F)(F)F)n3)cc2C)on1	Isolate 15	cytopathic effect / visual reading	OHIO HELA-I	<0.01 µg/mL
CSc1nsc(-c2ccc(OCCCOc3ccc(C#N)cc3)cc2)c1C#N	Serotype 72 (group A)	cytopathic effect	HELA-OHIO	>2 µM
COc1ccc(-c2snc(SC)c2C#N)cc1	Serotype 59 (group B)	cytopathic effect	HELA-OHIO	>12 µM
Fc1cccc(Cn2cnc3c(Nc4cccc(F)c4)nc(C(F)(F)F)nc32)c1	Serotype 86	plaque count	M-HELA	>5 µM
CSc1nsc(-c2ccc(OCCOc3ccccc3)cc2)c1C#N	Serotype 89 (group B)	cytopathic effect	HELA-OHIO	3.5 µM
CN(C)c1nc(C(F)(F)F)nc2c1ncn2Cc1ccc(Cl)c(N)c1	Serotype 19	plaque count	M-HELA	>8 µM
CSc1nsc(-c2ccc(OCCCCOc3ccc([N+](=O)[O-])cc3)cc2)c1C#N	Serotype 70 (group A)	cytopathic effect	HELA-OHIO	>0.5 µM
Fc1ccc(Cn2cnc3c(Nc4cccc(F)c4)nc(C(F)(F)F)nc32)cc1	Serotype 5	plaque count	M-HELA	32 µM
CSc1nsc(-c2ccc(OCCOc3ccc([N+](=O)[O-])cc3)cc2)c1C#N	Serotype 39 (group B)	cytopathic effect	HELA-OHIO	0.25 µM
CN(C)c1nc(C(F)(F)F)nc2c1ncn2Cc1ccccc1Cl	Serotype 1B	plaque count	M-HELA	0.2 µM
CSc1nsc(-c2ccc(OCCCCOc3ccccc3)cc2)c1C#N	Serotype 39 (group B)	cytopathic effect	HELA-OHIO	3 µM
Cc1ccc(Cn2cnc3c(N(C)C)nc(C(F)(F)F)nc32)c(C)c1	Serotype 15	plaque count	M-HELA	>8 µM
CSc1nsc(-c2ccc(OS(=O)(=O)c3ccc(C)cc3)cc2)c1C#N	Serotype 85 (group B)	cytopathic effect	HELA-OHIO	0.3 µM
CSc1nsc(-c2ccc(OCCOc3ccc(C#N)cc3)cc2)c1C#N	Serotype 39 (group B)	cytopathic effect	HELA-OHIO	>2 µM
Cc1ccccc1Cn1cnc2c(N(C)C)nc(C(F)(F)F)nc21	Serotype 2	plaque count	M-HELA	>8 µM
CSc1nsc(-c2ccc(O)cc2)c1C#N	Serotype 70 (group A)	cytopathic effect	HELA-OHIO	>10 µM

2 of the rows above, restated:

CSc1nsc(-c2ccc(OCCOc3ccc([N+](=O)[O-])cc3)cc2)c1C#N ; strain or isolate: Serotype 39 (group B) ; method: cytopathic effect ; cell line: HELA-OHIO ; value: 0.25 µM
CN(C)c1nc(C(F)(F)F)nc2c1ncn2Cc1ccc(Cl)c(N)c1 ; strain or isolate: Serotype 19 ; method: plaque count ; cell line: M-HELA ; value: >8 µM